From paper PMC5006990 (PLoS ONE, 2016)
Values after ≈ are worked out from the molar mass of the structure shown.

Protein sequences, listed by entry. Tags and fused reporters are not part of them.
UniProt P9WNX1, whole entry: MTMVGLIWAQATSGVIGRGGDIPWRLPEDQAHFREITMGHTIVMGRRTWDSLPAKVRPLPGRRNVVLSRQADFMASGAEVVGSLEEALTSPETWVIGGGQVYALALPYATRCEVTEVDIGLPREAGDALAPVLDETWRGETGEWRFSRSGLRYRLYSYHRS

Assays:
MtbDHFR = MtbDHFR (Mycobacterium tuberculosis, UniProt P9WNX1); assay: MtbDHFR enzyme inhibition (NADPH oxidation at 340 nm); type: biochemical; conditions: triplicate, mean ± SD; for IC50: read-out: IC50 (nM) MtbDHFR
[1] = system: M. tuberculosis ATCC 35801 (strain Erdman); assay: Microtiter broth dilution MIC, Mtb Erdman; conditions: Table 1 panel
Mtb 5 = assay: Microtiter broth dilution MIC, XDR strain Mtb 5; type: cell-based, Mycobacterium tuberculosis; conditions: Table 1 panel
Mtb 365 = assay: Microtiter broth dilution MIC, MDR strain Mtb 365; type: cell-based, Mycobacterium tuberculosis; conditions: Table 1 panel
Mtb 276 = assay: Microtiter broth dilution MIC, MDR strain Mtb 276; type: cell-based, Mycobacterium tuberculosis; conditions: Table 1 panel
Mtb 352 = assay: Microtiter broth dilution MIC, MDR strain Mtb 352; type: cell-based, Mycobacterium tuberculosis; conditions: Table 1 panel
Mtb 56 = assay: Microtiter broth dilution MIC, MDR strain Mtb 56; type: cell-based, Mycobacterium tuberculosis; conditions: Table 1 panel
Mtb C-31 = assay: Microtiter broth dilution MIC, MDR strain Mtb C-31; type: cell-based, Mycobacterium tuberculosis; conditions: Table 1 panel

CCc1nc(N)nc(N)c1C#CC(C)c1cnc(-c2ccccc2)nc1 (stereo not drawn)
IC50 (MtbDHFR): 249 nM

CCc1nc(N)nc(N)c1C#CCc1ccc(-c2ccncc2)cc1
IC50 (MtbDHFR): 657 nM

CCc1nc(N)nc(N)c1C#CCc1ccc(-c2ccc(CN)cc2)cc1OC
IC50 (MtbDHFR): 530 nM

CCc1nc(N)nc(N)c1C#CC(C)c1ccc(-c2ccncc2)cc1Cl (stereo not drawn)
IC50 (MtbDHFR): 174 nM

CCc1nc(N)nc(N)c1C#CCc1cc(-c2ccccc2C(=O)O)ccc1OC
IC50 (MtbDHFR): 400 nM | IC50 (nM) MtbDHFR (MtbDHFR): poor enzyme inhibition

CCc1nc(N)nc(N)c1C#CC(C)c1cc2c(c(-c3ccncc3)c1)OCCO2 (stereo not drawn)
IC50 (MtbDHFR): 1800 nM | MIC (μg/mL) Mtb Erdman [1]: 8 µg/mL (≈ 19.9 µM) | MIC (μg/mL) Mtb 5 (Mtb 5): 16 µg/mL (≈ 39.9 µM) | MIC (μg/mL) Mtb 365 (Mtb 365): 8 µg/mL (≈ 19.9 µM) | MIC (μg/mL) Mtb 276 (Mtb 276): 16 µg/mL (≈ 39.9 µM) | MIC (μg/mL) Mtb 352 (Mtb 352): 8 µg/mL (≈ 19.9 µM) | MIC (μg/mL) Mtb 56 (Mtb 56): 8 µg/mL (≈ 19.9 µM) | MIC (μg/mL) Mtb C-31 (Mtb C-31): 16 µg/mL (≈ 39.9 µM)

CCc1nc(N)nc(N)c1C#CC(C)c1cc(OC)c(-c2ccncc2)c(OC)c1 (stereo not drawn)
IC50 (MtbDHFR): 333 nM

CCc1nc(N)nc(N)c1C#CC(C)c1cc(N2CCNCC2)ccc1OC (stereo not drawn)
IC50 (MtbDHFR): 302 nM

CCc1nc(N)nc(N)c1C#CC(C)c1cc2c(c(-c3ccnc(Cl)c3)c1)OCO2 (stereo not drawn)
IC50 (MtbDHFR): 482 nM

CCc1nc(N)nc(N)c1C#C[C@@H](C)c1cc2c(c(-c3ccncc3)c1)OCO2
IC50 (MtbDHFR): 122 nM

CCc1nc(N)nc(N)c1C#CC(C)c1cc(N2CCOCC2)ccc1OC (stereo not drawn)
IC50 (MtbDHFR): 239 nM

CCc1nc(N)nc(N)c1C#CC(C)c1cc(OC)cc(-c2ccccn2)c1 (stereo not drawn)
IC50 (MtbDHFR): 302 nM | MIC (μg/mL) Mtb Erdman [1]: 8 µg/mL (≈ 21.4 µM) | MIC (μg/mL) Mtb 5 (Mtb 5): 16 µg/mL (≈ 42.8 µM) | MIC (μg/mL) Mtb 365 (Mtb 365): 8 µg/mL (≈ 21.4 µM) | MIC (μg/mL) Mtb 276 (Mtb 276): 16 µg/mL (≈ 42.8 µM) | MIC (μg/mL) Mtb 352 (Mtb 352): 8 µg/mL (≈ 21.4 µM) | MIC (μg/mL) Mtb 56 (Mtb 56): 8 µg/mL (≈ 21.4 µM) | MIC (μg/mL) Mtb C-31 (Mtb C-31): 32 µg/mL (≈ 85.7 µM)

CCc1nc(N)nc(N)c1C#CC(C)c1cc(-c2cnccn2)ccc1OC (stereo not drawn)
IC50 (MtbDHFR): 263 nM | MIC (μg/mL) Mtb Erdman [1]: 8 µg/mL (≈ 21.4 µM) | MIC (μg/mL) Mtb 5 (Mtb 5): 16 µg/mL (≈ 42.7 µM) | MIC (μg/mL) Mtb 365 (Mtb 365): 8 µg/mL (≈ 21.4 µM) | MIC (μg/mL) Mtb 276 (Mtb 276): 16 µg/mL (≈ 42.7 µM) | MIC (μg/mL) Mtb 352 (Mtb 352): 16 µg/mL (≈ 42.7 µM) | MIC (μg/mL) Mtb 56 (Mtb 56): 8 µg/mL (≈ 21.4 µM) | MIC (μg/mL) Mtb C-31 (Mtb C-31): 32 µg/mL (≈ 85.5 µM)

CCc1nc(N)nc(N)c1C#CC(C)c1ccc(Nc2ccncc2)cc1OC (stereo not drawn)
IC50 (MtbDHFR): 220 nM

CCc1nc(N)nc(N)c1C#CC(C)c1cc(-c2cc[nH]c(=O)c2)ccc1OC (stereo not drawn)
IC50 (MtbDHFR): 525 nM

CCc1nc(N)nc(N)c1C#C[C@H](C)c1cc(-c2cc(C)nc(C)c2)ccc1Cl
IC50 (MtbDHFR): 114 nM

CCc1nc(N)nc(N)c1C#CC(C)c1cncc(-c2cncn2C)c1 (stereo not drawn)
IC50 (MtbDHFR): 582 nM
